Compound potency records, mixed from different reports. Data source: NIAID ChemDB in PubChem.

Common to all: whole-cell or culture tests; agent: Mycobacterium tuberculosis

Inhibition is in % at the dose shown (toxicity tests: loss of growth or viability). Neighbouring rows are from separate reports. A number after MIC or MFC names an inhibition level or a share of isolates. ECn is the concentration giving n% inhibition of infection, replication or growth. An empty or dashed field is not shown. MIC bound: limit read from a one-dose screen.

smiles,read by,read-out,strain or isolate,tested at,mutations,result
O=C(CCN1C(=O)/C(=C/c2ccc(OCc3ccccc3)cc2)SC1=S)NNC(=O)c1cccc2ccccc12,,MIC,H37Rv,,,88.18 µM
CC1=CC(=O)N(CC2CCC3CC2C3(C)C)C1=O,,MIC,Clinical isolate (isoniazid-resistant),,,≤20 µg/mL
CC[C@H]1OC(=O)[C@H](C)[C@@H](OC2C[C@@](C)(O)C(O)[C@H](C)O2)[C@H](C)[C@@H](OC2OC(C)C[C@H](N(C)C)C2O)[C@](C)(OC2CC(N(C)C)C(O)C(C)O2)C[C@@H](C)C(=O)[C@H](C)[C@@H](O)[C@]1(C)O,resazurin,MIC,H37Rv,,,>128 µg/mL
CO[C@H]1/C=C/O[C@@]2(C)Oc3c(C)c(O)c4c(O)c(c(C=Nc5ccc(C)cc5)c(O)c4c3C2=O)NC(=O)/C(C)=C\C=C\[C@H](C)[C@H](O)[C@@H](C)[C@@H](O)[C@@H](C)[C@H](OC(C)=O)[C@@H]1C,,MIC,H37Rv,,,>5 µg/mL
O=C(NNC1=NS(=O)(=O)c2ccccc2N1c1ccccc1)c1cccnc1,,MIC,H37Rv (ATCC 27294),,,>16 µg/mL
Cc1c(C(=O)O)nn(-c2ccc(F)cc2F)c1-c1ccc(Cl)cc1,agar,MIC90,H37Rv,,,6.25 µg/mL
CN1C(NNC(=O)c2cnccn2)=NS(=O)(=O)c2ccccc21,,MIC,H37Rv (ATCC 27294),,,0.5 µg/mL
COc1cccc(/C=N/N(C)c2c([N+](=O)[O-])cc(C(F)(F)F)cc2[N+](=O)[O-])c1O,BACTEC,inhibition,H37Rv,12.5 µg/mL,,26%
CO[C@H]1/C=C/O[C@@]2(C)Oc3c(C)c(O)c4c(O)c(c5c(c4c3C2=O)NC2(CCN(CC(C)C)CC2)N=5)=NC(=O)/C(C)=C\C=C\[C@H](C)[C@H](O)[C@@H](C)[C@@H](O)[C@@H](C)[C@H](OC(C)=O)[C@@H]1C,,MIC,1 isolates (rpoB Ser531Tyr),,,>8 µg/mL
O=C(NC1=NS(=O)(=O)c2ccccc2N1c1ccccc1)c1ccc(Cl)nc1,,MIC,Clinical isolates drug-resistant,,,>16 µg/mL
CCN(CCCNc1cc2c(c(N)c1S(=O)(=O)O)C(=O)c1ccccc1C2=O)c1ccccc1,BACTEC,MIC bound,H37Rv,,,>12.5 µg/mL
O=C(CCN1C(=O)CCC1=O)Nc1ccc(N2CCCCC2)cc1,,MIC,H37Rv,,,≤20 µg/mL
Cc1c(C(=O)NN2CCCCC2)nn(-c2ccccc2)c1-c1ccc(Cl)cc1,agar,MIC90,H37Rv,,,3.13 µg/mL
CN1C(NNC(=O)c2cccnc2)=NS(=O)(=O)c2ccccc21,,MIC,H37Rv (ATCC 27294),,,>16 µg/mL
CC1=NN(C(=O)c2ccncc2)C(=O)C1N=Nc1ccc(F)cc1,BACTEC,inhibition,H37Rv,12.5 µg/mL,,14%
CO[C@H]1/C=C/O[C@@]2(C)Oc3c(C)c(O)c4c(O)c(cc(O)c4c3C2=O)NC(=O)/C(C)=C\C=C\[C@H](C)[C@H](O)[C@@H](C)[C@@H](O)[C@@H](C)[C@H](OC(C)=O)[C@@H]1C,,MIC,Aoyama B (PAS-resistant),,,12.5 µg/mL
Cc1ccc2c3c([nH]c2c1)-c1[nH]c(=O)ncc1CCC3,resazurin,inhibition,H37Rv,50 µg/mL,,0%
C[C@H](NCn1nc(-c2cnccn2)oc1=S)C(=O)O,,MIC,H37Rv,,,0.1 µg/mL
CC(C)Nc1cc2c(cc1[N+](=O)[O-])c(=O)c(C(=O)O)cn2C(C)C,,MIC90,ATCC 27294 (WT),,,22.6 µM
O=C(NC(=O)C(Cl)Cl)Nc1cccc2c1-c1ccccc1C2,BACTEC,inhibition,H37Rv,12.5 µg/mL,,0%
NNC(=O)c1ccncc1,resazurin,MIC,H37Rv,,,0.06 µg/mL
S=c1[nH]nc(-c2cnccn2)n1-c1ccccc1,,MIC,H37Rv,,,0.1 µg/mL
O=c1c2ccccc2oc2cc3c(c(O)c12)CCCC3,BACTEC,MIC bound,H37Rv,,,>12.5 µg/mL
O=C(CCN1C(=O)/C(=C/c2ccc(Cl)cc2)SC1=S)NNC(=O)c1cccc2ccccc12,,MIC,H37Rv,,,63.71 µM
O=[N+]([O-])c1ccc(-c2ccc(C3=Nn4c(CNc5ccccc5Cl)nnc4SC3)o2)cc1,BACTEC,MIC bound,H37Rv,,,>12.5 µg/mL
O=Cc1cccc(/C=N/NC(=O)c2ccncc2)c1,BACTEC,MIC99,H37Rv delta-katG,,INH resistant,>39.5 µM
CO[C@H]1/C=C/O[C@@]2(C)Oc3c(C)c(O)c4c(O)c(c(C=Nc5ccccc5C)c(O)c4c3C2=O)NC(=O)/C(C)=C\C=C\[C@H](C)[C@H](O)[C@@H](C)[C@@H](O)[C@@H](C)[C@H](OC(C)=O)[C@@H]1C,,MIC,H37Rv,,,5 µg/mL
O=C(Nc1cccc(F)c1)c1ccc2cc(O)ccc2c1,broth dilution / visual reading,MIC,H37Ra ATCC 25177,,,107 µM
CCN1C(NNC(=O)c2cnccn2)=NS(=O)(=O)c2ccccc21,,MIC,H37Rv (ATCC 27294),,,8 µg/mL
C=C1CC(=O)N(CCCCCCCC)C1=O,,MIC,Clinical isolate (isoniazid-resistant),,,≤20 µg/mL
COC(C(=O)C1=C2Oc3c4c(cc(O)c3C(=O)C2C2=C(CCCC2)C1=O)OC(C)(C)C=C4)C(C)CCC=C(C)C,BACTEC,inhibition,H37Rv,12.5 µg/mL,,91%
COc1cc(/C=C2\SC(=S)N(CCC(=O)NNC(=O)c3ccncc3)C2=O)cc(OC)c1OC,,MIC,H37Rv,,,1.55 µM
C[N+](C)(C)CC(=O)N/N=C/c1ccco1,BACTEC,MIC bound,H37Rv,,,>12.5 µg/mL
CN1C(NNC(=O)c2ccncc2)=NS(=O)(=O)c2ccccc21,,MIC,H37Rv (ATCC 27294),,,>16 µg/mL
S=c1ncc2c([nH]1)-c1[nH]c3ccccc3c1CCC2,resazurin,inhibition,H37Rv,50 µg/mL,,0%
O=C(CCN1C(=O)/C(=C/c2ccc([N+](=O)[O-])cc2)SC1=S)NNC(=O)c1ccccc1,,MIC,H37Rv,,,1.71 µM
Cc1c(C(=O)NN2CCC(C)CC2)nn(-c2ccc(F)cc2F)c1-c1ccc(Cl)cc1,agar,MIC90,H37Rv,,,12.5 µg/mL
CCCCN1C(=O)C=CC1=O,,MIC,Clinical isolate (isoniazid-resistant),,,≤20 µg/mL
NNC(=O)c1ccncc1,,EC50,H37Rv,,,0.72 µM
CCCCCCCCCN1C(=O)CC(SCCNC(=O)C2CCCC2)C1=O,,MIC,H37Rv,,,≤20 µg/mL
CO[C@H]1/C=C/O[C@@]2(C)Oc3c(C)c(O)c4c(O)c(c(/C=N/NC(=O)c5ccncc5)c(O)c4c3C2=O)NC(=O)/C(C)=C\C=C\[C@H](C)[C@H](O)[C@@H](C)[C@@H](O)[C@@H](C)[C@H](OC(C)=O)[C@@H]1C,,MIC,H37Rv,,,5 µg/mL
O=C(O)c1cn(CCF)c2cc(NCCF)c([N+](=O)[O-])cc2c1=O,,MIC50,ATCC 27294 (WT),,,77 µM
COc1ccc(N=Nc2ccc(N)nc2N)cc1,BACTEC,MIC,H37Rv,,,≥12.5 µg/mL
C[C@@H](O)[C@H]1C(=O)N2C(C(=O)O)=C([C@H]3CCCO3)S[C@H]12,resazurin,MBC,H37Rv,,,4 µg/mL
CO[C@H]1/C=C/O[C@@]2(C)Oc3c(C)c(O)c4c(O)c(c(/C=N/N=C(N)N)c(O)c4c3C2=O)NC(=O)/C(C)=C\C=C\[C@H](C)[C@H](O)[C@@H](C)[C@@H](O)[C@@H](C)[C@H](OC(C)=O)[C@@H]1C,,MIC,H37Rv,,,5 µg/mL
O=c1ncc2c([nH]1)-c1[nH]c3ccccc3c1CCC2,resazurin,inhibition,H37Rv,50 µg/mL,,0%
CCN1C(NNC(=O)c2ccncc2)=NS(=O)(=O)c2ccccc21,,MIC,Clinical isolates drug-resistant,,,>16 µg/mL
O=C(O)c1cc(-n2c(-c3ccccc3)cc3c2CCc2ccccc2-3)ccc1O,resazurin,inhibition,H37Rv,6.25 µg/mL,,14%
Cc1cccc(NC(=O)c2ccc3cc(O)ccc3c2)c1,broth dilution / visual reading,MIC,H37Ra ATCC 25177,,,27 µM
NNC(=O)c1ccncc1,,MIC,Strain 35,,,0.125 µg/mL
O=c1c(-c2nn[nH]n2)cnc2sc3cc(Cl)ccc3n12,resazurin,MIC bound,H37Rv,,,>6.25 µg/mL
Cc1c(C(=O)O)nn(-c2ccc(Cl)cc2Cl)c1-c1ccc(Cl)cc1,agar,MIC90,H37Rv,,,12.5 µg/mL
CN1C(NC(=O)c2ccc(Cl)nc2)=NS(=O)(=O)c2cc(Cl)ccc21,,MIC,H37Rv (ATCC 27294),,,>16 µg/mL
CCCCCCCCCN1C(=O)CC(SCCNC(=O)c2ccc(CCCC)cc2)C1=O,,MIC,H37Rv,,,≤20 µg/mL
COc1c(N2CCNC(C)C2)c(F)cc2c(=O)c(C(=O)O)cn(C3CC3)c12,,MIC,Strain 328,,,0.125 µg/mL
CCCCCCCCCN1C(=O)CC(SCCNC(=O)c2ccc(OCCCCCC)cc2)C1=O,,MIC,H37Rv,,,≤20 µg/mL
COC1OC2COC(C)(C)OC2C1NS(=O)(=O)Cc1ccccc1,BACTEC,inhibition,H37Rv,12.5 µg/mL,,16%
CCCCCCCCNC1CC(=O)NC1=O,,MIC,H37Ra,,,≤20 µg/mL
O=[N+]([O-])c1ccccc1-c1nnc(/N=C\c2ccco2)s1,resazurin,MIC,H37Rv,,,12.5 µg/mL
NC(N)=NS(=O)(=O)c1ccc(N=Nc2c(O)n(-c3ccccc3)n(-c3ccccc3)c2=O)cc1,BACTEC,inhibition,H37Rv,12.8 µg/mL,,24%
CCCCCCCCNC1(C)CC(=O)N(CCCCCCCC)C1=O,,MIC,H37Ra,,,≤20 µg/mL
C/C=C/C1(/C=C/C)C(=O)OC(=O)C1(/C=C/C)/C=C/C,BACTEC,inhibition,H37Rv,12.5 µg/mL,,-5%
CO[C@H]1/C=C/O[C@@]2(C)Oc3c(C)c(O)c4c(O)c(c(/C=N/Nc5ccccc5)c(O)c4c3C2=O)NC(=O)/C(C)=C\C=C\[C@H](C)[C@H](O)[C@@H](C)[C@@H](O)[C@@H](C)[C@H](OC(C)=O)[C@@H]1C,,MIC,H37Rv,,,2 µg/mL
Nc1nc(N)c2nc3c(nc2n1)CCCCCC3,BACTEC,MIC bound,H37Rv,,,>12.5 µg/mL
CN[C@@H]1[C@H](O[C@H]2[C@H](O[C@H]3[C@H](O)[C@@H](O)[C@H](N=C(N)N)[C@@H](O)[C@@H]3N=C(N)N)O[C@@H](C)[C@]2(O)C=O)O[C@@H](CO)[C@H](O)[C@H]1O,,MIC,U115,,,0.25 µg/mL
Cc1ccc(S(=O)(=O)N=Nc2c(O)[nH]c3cc(O)c(C(=O)O)cc23)cc1,BACTEC,inhibition,H37Rv,12.5 µg/mL,,-14%
Cc1c(C(=O)NN2CCCCC2)noc1-c1ccc(Cl)cc1,agar,MIC90,H37Rv,,,12.5 µg/mL
O=C(O)c1ccc(NCn2nc(-c3cnccn3)oc2=S)cc1O,,MIC,H37Rv,,,0.1 µg/mL
NC(=O)C(CO)NC(=O)c1cccnc1,BACTEC,inhibition,H37Rv,12.5 µg/mL,,39%
O=C(O)c1cn(N2CCOCC2)c2cc(NC3CC3)c([N+](=O)[O-])cc2c1=O,,MIC50,ATCC 27294 (WT),,,14.6 µM
Cc1ccccc1-n1c(SCC(=O)NC(=O)Nc2cccc(Cl)c2)nc2c(Br)cc(Br)cc2c1=O,BACTEC,inhibition,H37Rv,12.5 µg/mL,,95%
CO[C@H]1/C=C/O[C@@]2(C)Oc3c(C)c(O)c4c(O)c(c(C=Nc5ccc(Cl)cc5)c(O)c4c3C2=O)NC(=O)/C(C)=C\C=C\[C@H](C)[C@H](O)[C@@H](C)[C@@H](O)[C@@H](C)[C@H](OC(C)=O)[C@@H]1C,,MIC,H37Rv,,,>5 µg/mL
CN(C)CSC(=S)NCCNC(=S)SCN(C)C,resazurin,MIC bound,H37Rv,,,>6.25 µg/mL
CO/N=C(\C(=O)N[C@@H]1C(=O)N2C(C(=O)O)=C(COC(C)=O)CS[C@H]12)c1csc(N)n1,resazurin,MIC,H37Rv,,,2 µg/mL
O=C1C(=O)c2cccnc2C(O)=C1CCCCc1ccccc1,resazurin,MIC bound,H37Rv,,,>6.25 µg/mL
CCOC(=O)c1nn(-c2ccccc2)c(-c2ccc(Cl)cc2)c1C,agar,MIC90,H37Rv,,,25 µg/mL

For reference, 4 entries again:

smiles,read by,read-out,strain or isolate,tested at,mutations,result
Cc1c(C(=O)NN2CCCCC2)nn(-c2ccccc2)c1-c1ccc(Cl)cc1,agar,MIC90,H37Rv,,,3.13 µg/mL
CN(C)CSC(=S)NCCNC(=S)SCN(C)C,resazurin,MIC bound,H37Rv,,,>6.25 µg/mL
COc1c(N2CCNC(C)C2)c(F)cc2c(=O)c(C(=O)O)cn(C3CC3)c12,,MIC,Strain 328,,,0.125 µg/mL
CO[C@H]1/C=C/O[C@@]2(C)Oc3c(C)c(O)c4c(O)c(cc(O)c4c3C2=O)NC(=O)/C(C)=C\C=C\[C@H](C)[C@H](O)[C@@H](C)[C@@H](O)[C@@H](C)[C@H](OC(C)=O)[C@@H]1C,,MIC,Aoyama B (PAS-resistant),,,12.5 µg/mL